{"source": "PubChem BioAssay AID1259414 – Drosophila RNAi Screening Center – 2018", "screen": "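Fly genes that alter Wolbachia amount inside host cells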 (primary screen)", "cell system": "Drosophila JW18 cells infected with Wolbachia", "reagent": "long dsRNA against Drosophila genes, 0.25 µg dsRNA per well of a 384-well plate", "time to read-out": "5 days", "treatment": "cells persistently infected with Wolbachia before knock-down; no added drug", "measured": "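Automated imaging of bacterial rRNA staining divided by host cell count, reported as plate-normalised robust z-score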", "scale": "Wolbachia per cell robust z: higher = more Wolbachia per host cell than the plate typical", "active means": "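Active if absolute robust z reaches 1.5 in two or more of three replicates, leaving out multi- or no-target dsRNAs, genes unexpressed in JW18 and A1 wells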", "note": "The screen tested about 24,000 reagents; this is a random part of those that have a named target and a result. Over the whole deposit, about 1,210 (5%) got an active call. 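Inactive calls also include excluded dsRNAs with several or no targets, genes unexpressed in JW18, and well A1, regardless of score.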 Reagents against one gene are numbered here. A plus sign joins genes that one reagent is predicted to hit. Reagent sequences are not shown."}
{"target": "Eglp4", "dsRNA no.": 1, "Wolbachia per cell robust z, rep 1": -0.882, "Wolbachia per cell robust z, rep 2": -0.663, "Wolbachia per cell robust z, rep 3": -0.772, "outcome": "inactive"}
{"target": "Eglp4", "dsRNA no.": 2, "Wolbachia per cell robust z, rep 1": 0.025, "Wolbachia per cell robust z, rep 2": -0.0793, "Wolbachia per cell robust z, rep 3": -0.402, "outcome": "inactive"}
{"target": "rswl", "dsRNA no.": 1, "Wolbachia per cell robust z, rep 1": -1.43, "Wolbachia per cell robust z, rep 2": -2.41, "Wolbachia per cell robust z, rep 3": -8.74, "outcome": "active"}
{"target": "CAH6", "dsRNA no.": 1, "Wolbachia per cell robust z, rep 1": -1.1, "Wolbachia per cell robust z, rep 2": -2.54, "Wolbachia per cell robust z, rep 3": -4.06, "outcome": "inactive"}
{"target": "CG13097", "dsRNA no.": 1, "Wolbachia per cell robust z, rep 1": -1.47, "Wolbachia per cell robust z, rep 2": 0.7, "Wolbachia per cell robust z, rep 3": -0.317, "outcome": "inactive"}
{"target": "Sgt", "dsRNA no.": 1, "Wolbachia per cell robust z, rep 1": 1.17, "Wolbachia per cell robust z, rep 2": 0.699, "Wolbachia per cell robust z, rep 3": 0.114, "outcome": "inactive"}
{"target": "Sgt", "dsRNA no.": 2, "Wolbachia per cell robust z, rep 1": -13.1, "Wolbachia per cell robust z, rep 2": -1.54, "Wolbachia per cell robust z, rep 3": -0.773, "outcome": "active"}
{"target": "egg", "dsRNA no.": 1, "Wolbachia per cell robust z, rep 1": 0.413, "Wolbachia per cell robust z, rep 2": -0.634, "Wolbachia per cell robust z, rep 3": -1.96, "outcome": "inactive"}
{"target": "egg", "dsRNA no.": 2, "Wolbachia per cell robust z, rep 1": 0.429, "Wolbachia per cell robust z, rep 2": 1.08, "Wolbachia per cell robust z, rep 3": 0.358, "outcome": "inactive"}
{"target": "egg", "dsRNA no.": 3, "Wolbachia per cell robust z, rep 1": -0.328, "Wolbachia per cell robust z, rep 2": 2.23, "Wolbachia per cell robust z, rep 3": 0.98, "outcome": "inactive"}
{"target": "swif + cola", "dsRNA no.": 1, "Wolbachia per cell robust z, rep 1": 0.141, "Wolbachia per cell robust z, rep 2": -0.285, "Wolbachia per cell robust z, rep 3": 0.875, "outcome": "inactive"}
{"target": "swif + cola", "dsRNA no.": 2, "Wolbachia per cell robust z, rep 1": -1.07, "Wolbachia per cell robust z, rep 2": -1.46, "Wolbachia per cell robust z, rep 3": 0.302, "outcome": "inactive"}

Targets listed so far whose target name begins with E or e:
{"target": "Eglp4", "dsRNA no.": 1, "Wolbachia per cell robust z, rep 1": -0.882, "Wolbachia per cell robust z, rep 2": -0.663, "Wolbachia per cell robust z, rep 3": -0.772, "outcome": "inactive"}
{"target": "Eglp4", "dsRNA no.": 2, "Wolbachia per cell robust z, rep 1": 0.025, "Wolbachia per cell robust z, rep 2": -0.0793, "Wolbachia per cell robust z, rep 3": -0.402, "outcome": "inactive"}
{"target": "egg", "dsRNA no.": 1, "Wolbachia per cell robust z, rep 1": 0.413, "Wolbachia per cell robust z, rep 2": -0.634, "Wolbachia per cell robust z, rep 3": -1.96, "outcome": "inactive"}
{"target": "egg", "dsRNA no.": 2, "Wolbachia per cell robust z, rep 1": 0.429, "Wolbachia per cell robust z, rep 2": 1.08, "Wolbachia per cell robust z, rep 3": 0.358, "outcome": "inactive"}
{"target": "egg", "dsRNA no.": 3, "Wolbachia per cell robust z, rep 1": -0.328, "Wolbachia per cell robust z, rep 2": 2.23, "Wolbachia per cell robust z, rep 3": 0.98, "outcome": "inactive"}
